PubChem BioAssay AID1259414 | Drosophila RNAi Screening Center | 2018
In all, the deposit lists about 24,000 reagents; below is a random part of those with a known target gene and a result. Of all reagents, about 1,210 (5%) are marked active. 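Inactive calls also include excluded dsRNAs with several or no targets, genes unexpressed in JW18, and well A1, regardless of score.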 Entries without a mark were called inactive. The numbers tell different reagents against one gene apart.

Assay: 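Genome-wide screen for host control of endosymbiont load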 (primary screen)
System: Drosophila JW18 cells infected with Wolbachia
Knock-down reagent: long dsRNA against Drosophila genes, 0.25 µg dsRNA per well of a 384-well plate
Time to read-out: 5 days
Treatment: cells persistently infected with Wolbachia before knock-down; no added drug
Detection: 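Automated imaging of bacterial rRNA staining divided by host cell count, reported as plate-normalised robust z-score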
Direction: Wolbachia per cell robust z: higher = more Wolbachia per host cell than the plate typical
Rule for the call: 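Active if absolute robust z reaches 1.5 in two or more of three replicates, leaving out multi- or no-target dsRNAs, genes unexpressed in JW18 and A1 wells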

mthl3 (GeneID 36961) #1 — Wolbachia per cell robust z, rep 1: -0.0141; Wolbachia per cell robust z, rep 2: -1.94; Wolbachia per cell robust z, rep 3: -0.18
mthl3 (GeneID 36961) #2 — Wolbachia per cell robust z, rep 1: -0.686; Wolbachia per cell robust z, rep 2: 1.08; Wolbachia per cell robust z, rep 3: -0.988
lncRNA:CR30009 (GeneID 3771726) #1 — Wolbachia per cell robust z, rep 1: 0.176; Wolbachia per cell robust z, rep 2: 0.0176; Wolbachia per cell robust z, rep 3: 0.548
lncRNA:CR30009 (GeneID 3771726) #2 — Wolbachia per cell robust z, rep 1: -0.0421; Wolbachia per cell robust z, rep 2: -0.457; Wolbachia per cell robust z, rep 3: 0.178
Cnx14D (GeneID 32620) #1 — Wolbachia per cell robust z, rep 1: 0.0842; Wolbachia per cell robust z, rep 2: 0.687; Wolbachia per cell robust z, rep 3: 0.0717
Cnx14D (GeneID 32620) #2 — Wolbachia per cell robust z, rep 1: -0.18; Wolbachia per cell robust z, rep 2: -1.37; Wolbachia per cell robust z, rep 3: -0.869
Mur89F (GeneID 42080) #1 — Wolbachia per cell robust z, rep 1: 0.284; Wolbachia per cell robust z, rep 2: -0.0218; Wolbachia per cell robust z, rep 3: 0.123
Mur89F (GeneID 42080) #2 — Wolbachia per cell robust z, rep 1: -0.482; Wolbachia per cell robust z, rep 2: 0.388; Wolbachia per cell robust z, rep 3: 0.81
cad (GeneID 35341) #1 — Wolbachia per cell robust z, rep 1: 0.336; Wolbachia per cell robust z, rep 2: 0.229; Wolbachia per cell robust z, rep 3: -1.18
cad (GeneID 35341) #2 — Wolbachia per cell robust z, rep 1: 0.388; Wolbachia per cell robust z, rep 2: -0.713; Wolbachia per cell robust z, rep 3: 0.952
CG14252 (GeneID 43238) — Wolbachia per cell robust z, rep 1: 0.573; Wolbachia per cell robust z, rep 2: 0.792; Wolbachia per cell robust z, rep 3: 1.62

Only “Wolbachia per cell robust z, rep 1” (2 entries from above):
cad (GeneID 35341) #1	0.336
cad (GeneID 35341) #2	0.388

Continued:
CG14483 (GeneID 36995) — Wolbachia per cell robust z, rep 1: -0.484; Wolbachia per cell robust z, rep 2: -5.42; Wolbachia per cell robust z, rep 3: -1.52
CG31806 (GeneID 261615) #1 — Wolbachia per cell robust z, rep 1: -0.123; Wolbachia per cell robust z, rep 2: -3.32; Wolbachia per cell robust z, rep 3: -0.797
CG31806 (GeneID 261615) #2 — Wolbachia per cell robust z, rep 1: 0.0579; Wolbachia per cell robust z, rep 2: 0.473; Wolbachia per cell robust z, rep 3: 0.959
Spindly (GeneID 33578) — Wolbachia per cell robust z, rep 1: -0.0194; Wolbachia per cell robust z, rep 2: -3.22; Wolbachia per cell robust z, rep 3: 1.07
norpA (GeneID 31376) #1 — Wolbachia per cell robust z, rep 1: -0.73; Wolbachia per cell robust z, rep 2: -0.712; Wolbachia per cell robust z, rep 3: 1.03
norpA (GeneID 31376) #2 — Wolbachia per cell robust z, rep 1: -1.75; Wolbachia per cell robust z, rep 2: 0.897; Wolbachia per cell robust z, rep 3: 0.516
